Pooled drug test results. Numbers come from NIAID ChemDB, via PubChem.

All rows: target-level tests; agent: Hepatitis C virus; target: Nonstructural protein 3 NTPase/helicase; measure: IC50

Rows are shuffled and stem from different studies. Two numbers with a dash give a range or band. ICn: concentration for n% inhibition.

{"structure": "O=C(/C=C/C(=O)Nc1ccc(-c2nc3ccccc3[nH]2)cc1)Nc1ccc(-c2nc3ccccc3[nH]2)cc1", "value": "<25 µg/mL"}
{"structure": "O=C(CCC(=O)N1CCC(c2nc3ccccc3[nH]2)CC1)N1CCC(c2nc3ccccc3[nH]2)CC1", "value": "0.7 µM"}
{"structure": "CO[C@@H]1[C@@H](OC)[C@@H](OC)C(O[C@H]2C[C@](C)(O)C(C(=O)CO)c3c(O)c4c(c(O)c32)C(=O)c2c(O)cc3c(c2C4=O)OC2OC3(C)C(O)C(N(C)C)C2O)O[C@H]1C", "value": "0.1 µM"}
{"structure": "Cc1ccc2nc(-c3ccc(N)cc3)sc2c1", "value": ">25 µg/mL"}
{"structure": "O=C(CCCCC(=O)Nc1ccc(-c2nc3ncncc3[nH]2)cc1)Nc1ccc(-c2nc3ccccc3[nH]2)cc1", "value": "0.7 µM"}
{"structure": "COC(=O)C1c2cc3c(c(O)c2C(O)CC1(C)O)C(=O)c1c(O)cc2c(c1C3=O)OC1OC2(C)C(O)C(N(C)C)C1O", "value": "0.1 µM"}
{"structure": "O=C(CCCCCCCC(=O)Nc1ccc(-c2nc3ccccc3[nH]2)cc1)Nc1ccc(-c2nc3ccccc3[nH]2)cc1", "value": ">25 µg/mL"}
{"structure": "O=C(CCC(=O)Nc1ccc(-c2nc3ccccc3[nH]2)cc1)Nc1ccc(-c2nc3ccccc3[nH]2)cc1", "value": "0.7 µM"}
{"structure": "Brc1c(Br)c(Br)c2n[nH]nc2c1Br", "value": "20 µM"}
{"structure": "NC(=O)c1ncn([C@@H]2O[C@H](COP(=O)(O)OP(=O)(O)O)[C@@H](O)[C@H]2O)n1", "value": "250 µM"}
{"structure": "O=C(CCCCC(=O)Nc1ccc(-c2nc3ccccc3[nH]2)cc1)Nc1ccc(-c2nc3ccccc3[nH]2)cc1", "value": "<25 µg/mL"}
{"structure": "Nc1nc2c(ncn2CCCl)c(=O)[nH]1", "value": "120 µM"}
{"structure": "O=C(O)C(Cc1ccccc1)N(Cc1cccc(-c2cc3ccccc3o2)c1)C(=O)c1ccc(Cl)cc1Cl", "read by": "HPLC", "value": "5–20 µM"}
{"structure": "O=C(CCC(=O)Nc1ccc(-c2nc3ccccc3s2)cc1)Nc1ccc(-c2nc3ccccc3s2)cc1", "value": ">25 µg/mL"}
{"structure": "O=C(OC[C@H]1O[C@@H](n2cnc3c(=O)[nH]cnc32)[C@H](O)[C@@H]1O)c1ccc(S(=O)(=O)F)cc1", "value": "200 µM"}
{"structure": "CN1CCN(CCCN2c3ccccc3Sc3ccc(C(F)(F)F)cc32)CC1", "value": "0.6–0.7 µM"}
{"structure": "O=C(O)[C@H](Cc1ccccc1)N(Cc1ccc(-c2cc3ccccc3o2)s1)C(=O)c1ccc(Cl)cc1Cl", "read by": "HPLC", "value": "5–20 µM"}
{"structure": "COc1cccc2c1C(=O)c1c(O)c3c(c(O)c1C2=O)C[C@@](O)(C(C)=O)C[C@@H]3O[C@H]1C[C@H](N)[C@H](O)[C@H](C)O1", "value": "57 µM"}
{"structure": "OC[C@H]1O[C@@H](n2cnc3cc(Cl)c(Cl)cc32)[C@H](O)[C@@H]1O", "value": "450 µM"}
{"structure": "COc1cc(C)c(S(=O)(=O)N(Cc2ccc(-c3cc4ccccc4o3)cc2)[C@@H](Cc2ccccc2)C(=O)O)c(C)c1C", "read by": "HPLC", "value": "5–20 µM"}

Repeating the first 3 entries:

{"structure": "O=C(/C=C/C(=O)Nc1ccc(-c2nc3ccccc3[nH]2)cc1)Nc1ccc(-c2nc3ccccc3[nH]2)cc1", "value": "<25 µg/mL"}
{"structure": "O=C(CCC(=O)N1CCC(c2nc3ccccc3[nH]2)CC1)N1CCC(c2nc3ccccc3[nH]2)CC1", "value": "0.7 µM"}
{"structure": "CO[C@@H]1[C@@H](OC)[C@@H](OC)C(O[C@H]2C[C@](C)(O)C(C(=O)CO)c3c(O)c4c(c(O)c32)C(=O)c2c(O)cc3c(c2C4=O)OC2OC3(C)C(O)C(N(C)C)C2O)O[C@H]1C", "value": "0.1 µM"}